PubChem BioAssay AID504761 – Drosophila RNAi Screening Center | 2011

Screen: 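Genome-wide fly cell screen for genes dengue virus requires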 (primary screen)
System: D.Mel-2 cells from Drosophila
Reagents: long dsRNA against Drosophila genes
Challenge: infection with dengue virus type 2; dose and infection time not stated
Read-out: 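Cells stained for dengue envelope protein and imaged; percent of infected cells per well on duplicate plates, ranked by infection, with stained nuclei counted for cell number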
Reading the numbers: infection score: higher = more virus-infected cells
Rule for the call: 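Low infection ranks in the two replicates (chance level up to 0.065) followed by a retest with a 1.5-fold or larger significant decrease, p below 0.05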
Meaning of the calls: active = confirmed: knock-down lowers infection; inactive = not picked or not confirmed
The deposit covers about 22,000 reagents; shown is an unselected part of those with a known target gene and a result. Of all reagents, 116 (0.52%) got an active call. 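Calls depend on retest data that are not deposited; infection was ranked per plate without normalising between plates; the unit of the infection score is not given.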 Unmarked entries are inactive. The numbers tell different reagents against one gene apart. A plus sign joins genes that one reagent is predicted to hit. Not all columns of the deposit are shown. No sequences are given here. Not stated in the record: the amount of reagent, the time to read-out.

| gene | reagent | infection score, replicate 1 | infection score, replicate 2 |
| --- | --- | --- | --- |
| FAM21 | 1 | 6.61 | 14.2 |
| FAM21 | 2 | 2.35 | 4.61 |
| Nedd4 | 1 | 6.35 | 2.31 |
| Nedd4 | 2 | 2.21 | 2.41 |
| Nedd4 | 3 | 16.6 | 21 |
| mtgo | 1 | 2.99 | 47.4 |
| mtgo | 2 | 2.25 | 10.9 |
| mtgo | 3 | 7.95 | 11.3 |
| mtgo | 4 | 6.46 | 13.8 |
| CaMKII | 1 | 1.65 | 8.49 |
| CG33255 (retired record) + hpRNA:CR32205 | 1 | 2.73 | 1.64 |
| CG33255 (retired record) + hpRNA:CR32205 | 2 | 1.88 | 3.36 |
| Polr1H | 1 | 8.04 | 4.08 |
| Polr1H | 2 | 17.5 | 8.46 |
| cg | 1 | 4.02 | 5.82 |
| cg | 2 | 5.79 | – |
| tipE | 1 | 14.9 | 3.08 |
| tipE | 2 | 8.31 | 6.61 |
| eIF3l | 1 | 7.63 | 2.23 |
| eIF3l | 2 | 17.7 | 13.7 |
| Ref2 | 1 | 6.06 | 2.23 |
| 5-HT2B | 1 | 12.5 | 21.3 |
| 5-HT2B | 2 | 7.84 | 4.33 |
| 5-HT2B | 3 | 22.4 | 1.83 |
| CG12826 | 1 | 5.1 | 13.5 |
| CG5002 | 1 | 14.4 | 11.1 |
| mfrn | 1 | – | 2.4 |
| Idgf2 | 1 | 24.4 | 11.9 |
| Idgf2 | 2 | 1.95 | 6.4 |
| CG11892 | 1 | 1.3 | 1.65 |
| MED30 | 1 | 5 | 21.2 |
| MED30 | 2 | 47.3 | 7.96 |
| Elba2 | 1 | 3.94 | 26.8 |
| Elba2 | 2 | 14.2 | 12.8 |
| CG31793 | 1 | 2.62 | 9.41 |
| CG31793 | 2 | 2.86 | 4.7 |
| mtDNA-helicase | 1 | 4.06 | 2.09 |
| CG42724 | 1 | 5.34 | 13.1 |
| CG42724 | 2 | 4.16 | 3.78 |
| CG42724 | 3 | 8.07 | 5.53 |
| CG42724 | 4 | 7.08 | 17.3 |
| sens | 1 | 4.03 | 3.46 |
| sens | 2 | 2.15 | 6.11 |
| CG7460 | 1 | 2.14 | 1.15 |
| CG7460 | 2 | 9.37 | 28.6 |
| CG5516 | 1 | 4.78 | 22.2 |
| CG5516 | 2 | 3.39 | 5.43 |
| CG5516 | 3 | 6.21 | 13.8 |
| CG46339 | 1 | 2.05 | 1.88 |
| CG46339 | 2 | 2.39 | 5.34 |
| fln | 1 | 2.64 | 19.6 |
| fln | 2 | 13.9 | 1.72 |
| CG15344 (retired record) | 1 | 22.6 | 0.7 |
| RanGAP | 1 | 4.01 | 2.54 |
| RanGAP | 2 | 0.33 | – |
| CG32081 | 1 | 2.02 | 1.48 |
| Dgkepsilon | 1 | 9.68 | 7.15 |
| CycE | 1 | 35.3 | 22.9 |
| CycE | 2 | 3.19 | 3.9 |

Only “infection score, replicate 1” (9 entries from above):
Elba2 #2: 14.2
CG31793 #1: 2.62
CG31793 #2: 2.86
mtDNA-helicase: 4.06
CG42724 #1: 5.34
CG42724 #2: 4.16
CG42724 #3: 8.07
CG42724 #4: 7.08
sens #1: 4.03
